Compound potency records, mixed from different reports. Data source: NIAID ChemDB in PubChem.

All rows: whole-cell or culture tests; species: Candida albicans; measure: zone

Rows are shuffled and stem from different studies. Blank or dashed fields: not listed here. Zone: diameter of growth inhibition.

SMILES,strain or isolate,tested at,method,result
O=c1[nH]c(-c2cc3ccccc3oc2=O)nc2c1C(c1ccc(O)cc1)c1ccc3ccccc3c1O2,,100 µg/mL,agar diffusion / agar,12 mm
CCOC(=O)C1CCN(Cn2nc(C34CC5CC(CC(C5)C3)C4)n(/N=C/c3c(F)cccc3Cl)c2=S)CC1,IFO 3007,200 µg/disc,agar diffusion,<10 mm
COc1ccc(C2c3ccc4ccccc4c3Oc3nc(-c4cc5ccccc5oc4=O)[nH]c(=O)c32)cc1OC,,150 µg/mL,agar diffusion / agar,18 mm
Cc1ccc(N=Cc2c(-c3c(O)c4ccccc4n(C)c3=O)[nH][nH]c2=O)cc1,ATCC 10231,1 mg/mL,agar diffusion,23 mm
S=c1[nH]nc(C23CC4CC(CC(C4)C2)C3)n1/N=C/c1ccccc1,IFO 3007,200 µg/disc,agar diffusion,<10 mm
CCC(C)CCCCCCCCCCC(=O)N[C@H]1C[C@@H](O)[C@@H](NCCN2CCOCC2)NC(=O)C2[C@@H](O)[C@@H](C)CN2C(=O)C(CO)NC(=O)C([C@H](O)C(NCCN2CCOCC2)c2ccc(O)cc2)NC(=O)NC(=O)[C@@H]2C[C@@H](O)CN2C(=O)[C@H]([C@@H](C)O)NC1=O,IV,5 mg/mL,agar,19 mm
Cn1c(=O)c(-c2[nH][nH]c(=O)c2/C=N/c2ncccn2)c(O)c2ccccc21,ATCC 10231,1 mg/mL,agar diffusion,7 mm
O=c1[nH]c(-c2cc3ccccc3oc2=O)nc2c1C(c1cccc([N+](=O)[O-])c1)c1ccc3ccccc3c1O2,,150 µg/mL,agar diffusion / agar,14 mm
CCOC(=O)C1CCN(Cn2nc(C34CC5CC(CC(C5)C3)C4)n(/N=C/c3ccc(Cl)cc3Cl)c2=S)CC1,IFO 3007,200 µg/disc,agar diffusion,<10 mm
COc1ccc(/C=c2\c(=O)[nH][nH]\c2=C2/C(=O)c3ccccc3N(C)C2=O)cc1,ATCC 10231,1 mg/mL,agar diffusion,9 mm
CN(C)c1ccc(C2c3ccc4ccccc4c3Oc3nc(-c4cc5ccccc5oc4=O)[nH]c(=O)c32)cc1,,100 µg/mL,agar diffusion / agar,11 mm
S=c1[nH]nc(C23CC4CC(CC(C4)C2)C3)n1/N=C/c1ccc(Cl)c(Cl)c1,IFO 3007,200 µg/disc,agar diffusion,12 mm
Cn1c(=O)c(-c2[nH][nH]c(=O)c2N=Nc2cccc(Cl)c2)c(O)c2ccccc21,ATCC 10231,1 mg/mL,agar diffusion,14 mm
CCC(C)CCCCCCCCCCC(=O)N[C@H]1C[C@@H](O)[C@@H](SCC(=O)OC)NC(=O)C2[C@@H](O)[C@@H](C)CN2C(=O)C(CO)NC(=O)C([C@H](O)C(O)c2ccc(O)cc2)NC(=O)NC(=O)[C@@H]2C[C@@H](O)CN2C(=O)[C@H]([C@@H](C)O)NC1=O,IV,1 mg/mL,agar,20 mm
Cc1cc(=O)n(-c2ccc(N=Cc3c(-c4c(O)c5ccccc5n(C)c4=O)[nH][nH]c3=O)cc2)n1C,ATCC 10231,1 mg/mL,agar diffusion,10 mm
CCC(C)CCCCCCCCCCC(=O)N[C@H]1C[C@@H](O)[C@@H](NCCN2CCOCC2)NC(=O)C2[C@@H](O)[C@@H](C)CN2C(=O)C(CO)NC(=O)C([C@H](O)C(O)c2ccc(O)cc2)NC(=O)NC(=O)[C@@H]2C[C@@H](O)CN2C(=O)[C@H]([C@@H](C)O)NC1=O,IV,5 mg/mL,agar,16 mm
CCOC(=O)C1CCN(Cn2nc(C34CC5CC(CC(C5)C3)C4)n(/N=C/c3ccccc3)c2=S)CC1,IFO 3007,200 µg/disc,agar diffusion,<10 mm
CCC(C)CCCCCCCCCCC(=O)N[C@H]1C[C@@H](O)[C@@H](S(=O)(=O)CC(=O)OC)NC(=O)C2[C@@H](O)[C@@H](C)CN2C(=O)C(CO)NC(=O)C([C@H](O)C(O)c2ccc(O)cc2)NC(=O)NC(=O)[C@@H]2C[C@@H](O)CN2C(=O)[C@H]([C@@H](C)O)NC1=O,IV,5 mg/mL,agar,24 mm
Cn1c(=O)c(-c2[nH][nH]c(=O)c2N=Nc2cccc(Br)c2)c(O)c2ccccc21,ATCC 10231,1 mg/mL,agar diffusion,15 mm
O=c1[nH]c(-c2cc3ccccc3oc2=O)nc2c1C(c1ccccc1)c1ccc3ccccc3c1O2,,100 µg/mL,agar diffusion / agar,14 mm
S=c1[nH]nc(C23CC4CC(CC(C4)C2)C3)n1/N=C/c1ccc(Br)cc1,IFO 3007,200 µg/disc,agar diffusion,16 mm
CCC(C)CCCCCCCCCCC(=O)N[C@H]1C[C@@H](O)[C@@H](N=[N+]=[N-])NC(=O)C2[C@@H](O)[C@@H](C)CN2C(=O)C(CO)NC(=O)C([C@H](O)C(N=[N+]=[N-])c2ccc(O)cc2)NC(=O)NC(=O)[C@@H]2C[C@@H](O)CN2C(=O)[C@H]([C@@H](C)O)NC1=O,IV,2 mg/mL,agar,21 mm
COc1cc(/C=N/n2c(C34CC5CC(CC(C5)C3)C4)n[nH]c2=S)c([N+](=O)[O-])cc1OC,IFO 3007,200 µg/disc,agar diffusion,<10 mm
CCC(C)CCCCCCCCCCC(=O)N[C@H]1C[C@@H](O)[C@@H](Sc2ccccc2)NC(=O)C2[C@@H](O)[C@@H](C)CN2C(=O)C(CO)NC(=O)C([C@H](O)C(Sc2ccccc2)c2ccc(O)cc2)NC(=O)NC(=O)[C@@H]2C[C@@H](O)CN2C(=O)[C@H]([C@@H](C)O)NC1=O,IV,2 mg/mL,agar,15 mm

Again, the opening 2 rows:

SMILES	strain or isolate	tested at	method	result
O=c1[nH]c(-c2cc3ccccc3oc2=O)nc2c1C(c1ccc(O)cc1)c1ccc3ccccc3c1O2		100 µg/mL	agar diffusion / agar	12 mm
CCOC(=O)C1CCN(Cn2nc(C34CC5CC(CC(C5)C3)C4)n(/N=C/c3c(F)cccc3Cl)c2=S)CC1	IFO 3007	200 µg/disc	agar diffusion	<10 mm